Some of the results follow. Entries with a potency or affinity are not part of this list. Active and inactive are the calls of the source. No rule for the calls is given here.

The assay in a line: inhibitors of VEEV TC-83 cytopathic effect, confirmation, Vero cells (AID 588727). The conditions noted are these: VEEV TC-83 cytopathic effect inhibition, at 20 µM; stronger effect = higher value.
One may read the inhibition as how much of the control response was suppressed. For the compound `O=C(Nc1cc([As](=O)(O)O)ccc1O)c1ccccc1`, the inhibition is inactive: 1.22%.
Take `O=P1(N(CCCl)CCCl)OCCCS1` (centres undefined): the inhibition was inactive: 1.16%.
Take `CCN(N=Nc1nonc1N)c1nonc1N`: the inhibition is inactive: 1.02%.
In the case of `Nc1cccc2ccc([As](=O)(O)O)cc12` it was inactive: 2.15%.
`Cc1ccc(NP(=O)(Oc2ccccc2F)Oc2ccccc2F)nc1`: the inhibition result is “inactive”.
For `CN(C(=O)Cc1ccc(Cl)c(Cl)c1)[C@H]1CCCC[C@@H]1N1CCCC1` the value was inactive: 0.29%; for `Cc1cc(SC(NC(=O)c2ccc(F)cc2)C(Cl)(Cl)Cl)ncn1` (centres undefined), inactive: 1.78%.
In the case of `CCOP(=O)(Nc1ccccc1)OCC` it was inactive: 4.14%; in that of `CCCC1OP(N)(=O)OCC1CC` (centres undefined), “inactive”.
In the case of `CC(=O)Nc1ccc([As](=O)(O)O)cc1` it was inactive: 0.19%.
With `O=C(O)c1ccccc1[As](=O)(O)O`, the inhibition entry is “inactive”.
For `O=P(Nc1nc2ccc(Cl)cc2s1)(c1ccccc1)c1ccccc1` the value was inactive: 0.97%; for `CN(C)P(=O)(N(C)C)n1c(Nc2ccccc2)nnc1-c1ccccc1`, inactive: 8.1%; for `Nc1cc(N)c2nonc2c1[N+](=O)[O-]`, inactive: 0.84%.
For `CC(C)CC(=O)NC(Sc1ccc(Cl)cc1)C(Cl)(Cl)Cl` (centres undefined) the value was “inactive”; for `O=C(NC(Sc1ccncn1)C(Cl)(Cl)Cl)c1ccccc1` (centres undefined), inactive: 1.96%.
For `Oc1ccccc1CNc1ccccn1` the value was inactive: 0.39%; for `Cc1ccc(OP(=O)(Nc2nccs2)Oc2ccc(C)cc2)cc1`, inactive: 3.69%.
`COc1ccccc1OP(=O)(Nc1ccc(C)cn1)Oc1ccccc1OC`: the inhibition was inactive: 1.65%.
As for `CN1CCCC(OC(=O)C(c2ccccc2)c2ccccc2)C1` (centres undefined), the inhibition entry was “inactive”.
For `Clc1ccc(Cl)c(NC2=NCC(CBr)S2)c1` (centres undefined) the value was inactive: 2.26%; for `NC(=O)c1cc([N+](=O)[O-])cc([N+](=O)[O-])c1N`, inactive: 1.27%.
In the case of `Cc1ccc(N/C(=N/P(=O)(N2CCOCC2)N2CCOCC2)N2CCOCC2)cc1` it was “inactive”.
In the case of `CN(C(=O)Cc1ccc(Cl)c(Cl)c1)[C@H]1CCCC[C@H]1N1CCCC1` it was inactive: 0.16%; in that of `CC(=O)Nc1ccc(Oc2c([N+](=O)[O-])cc([N+](=O)[O-])cc2[N+](=O)[O-])cc1`, inactive: 2.53%; in that of `CC(=O)Nc1ccc([As](=O)(O)O)c(O)c1`, inactive: 0.18%.
`COC(=O)C1(C)COP(=O)(NCc2ccccc2)OC1` (centres undefined): the inhibition entry was “inactive”.
Take `CC(=O)c1ccc(N2CC2c2ccncc2)cc1` (centres undefined): the inhibition was inactive: 1.43%.
For `N#C/C(=C\c1ccc(N(CCBr)CCBr)cc1)C(N)=O` the value was inactive: 6.31%; for `C[C@H]1OP(=O)(Oc2ccccc2)C[C@@H]2O[C@@H]21` (some centres undefined), inactive: 2.09%.
In the case of `C[C@@H]1C=CCP(=O)(Oc2ccccc2)O1` (some centres undefined) it was inactive: 2.02%; in that of `Cc1ccccc1CN(C)C(=O)COC(=O)C(O)(c1ccccc1)c1ccccc1`, inactive: 0.52%; in that of `CCc1cc(O)c([N+](=O)[O-])c(C)c1[N+](=O)[O-]`, inactive: 2.45%.
For `CC(C)(C)C(=O)NC(Sc1ccccc1)C(Cl)(Cl)Cl` (centres undefined) the value was inactive: 1.66%; for `CCOc1ccc(C2=NCC(CBr)S2)cc1` (centres undefined), inactive: 8.01%; for `O=P1(Nc2nc3ccc(Cl)cc3s2)COc2ccccc2O1` (centres undefined), inactive: 5.69%.
For `O=c1c2cc([N+](=O)[O-])ccc2[nH]c2c([N+](=O)[O-])cc([N+](=O)[O-])cc12`, the inhibition result is “inactive”.
For `CN(C)C(=O)Oc1noc2ccccc12` the value was inactive: 0.18%; for `CC(NC(=O)COC(=O)C(O)(c1ccccc1)c1ccccc1)c1ccccc1` (centres undefined), inactive: 2.77%.
For `Cc1ccccc1OP(=O)(Nc1ccccn1)Oc1ccccc1C` the value was inactive: 8.56%; for `Cc1ccc(OP(=O)(Nc2ccccn2)Oc2ccc(C)cc2)cc1`, inactive: 3.53%; for `CC(=O)NC(SC(=S)N(CC(C)C)CC(C)C)C(Cl)(Cl)Cl` (centres undefined), inactive: 4.23%.
Turning to `COC(=O)c1cc2c(s1)N=C(c1ccccc1)N(C)P2(=O)N1CCOCC1` (centres undefined), the inhibition is inactive: 4.71%.
For `CCC(=O)N1C2C3N(C(=O)CC)C1C1N(C(=O)CC)C(C(N1C(=O)CC)N3C(=O)CC)N2C(=O)CC` the value was inactive: 1.66%.
For `O=C(OC1CN2CCC1CC2)c1ccccc1` (centres undefined) the value was inactive: 0.16%; for `O=P1(N(CCCl)CCCl)OCCC2CCCCN21` (centres undefined), “inactive”; for `CCNC(=S)/N=C(\N)N[N+](=O)[O-]`, inactive: 0.83%.
As to `O=C(NC1CCS(=O)(=O)C1)NP(=S)(Oc1ccccc1)Oc1ccccc1` (centres undefined), the inhibition is inactive: 1.92%.
In the case of `Cc1ccc(NP(=O)(Oc2cccc(C)c2)Oc2cccc(C)c2)nc1` it was inactive: 1.33%; in that of `c1ccc(-c2nn[nH]n2)c(-c2nn[nH]n2)c1`, “inactive”; in that of `C(Cc1nn[nH]n1)Cc1nn[nH]n1`, “inactive”.
For the compound `Nc1ccc([As](=O)(O)c2ccc([N+](=O)[O-])cc2)cc1`, the inhibition was inactive: 0.48%.
Take `O=C(OC1CN2CCC1CC2)c1cccc(Cl)c1` (centres undefined): the inhibition is inactive: 0.58%.
For `O=[N+]([O-])c1ccc(O)c(/C=N/Nc2ccc([N+](=O)[O-])cc2[N+](=O)[O-])c1` the value was “inactive”; for `CC(=O)NC(SC(=S)N(C)C)C(Cl)(Cl)Cl` (centres undefined), inactive: 2.18%; for `O=[As](O)(c1ccccc1)c1ccc(O)cc1`, “inactive”.
For `C[C@H]1OP(=O)(Oc2ccccc2)[C@H](O)[C@H](O)[C@H]1N=[N+]=[N-]` (some centres undefined) the value was inactive: 1.18%.
In the case of `O=P(Nc1nc2ccccc2s1)(c1ccccc1)c1ccccc1` it was inactive: 1.66%; in that of `COc1ccc(N)c([N+](=O)[O-])c1[N+](=O)[O-]`, inactive: 2.37%.
Take `O=P(Nc1ccccn1)(c1ccc(Br)cc1)c1ccc(Br)cc1`: the inhibition was inactive: 0.69%.
For `CN(C)C1(CNC(=O)c2ccc(Cl)c(S(N)(=O)=O)c2)CCCCC1` the value was inactive: 1.98%; for `c1nnnn1CCn1cnnn1`, “inactive”; for `CC(C)C(=O)NC(Sc1ccccc1)C(Cl)(Cl)Cl` (centres undefined), “inactive”.
In the case of `O=P(Nc1nccs1)(c1ccccc1)c1ccccc1`, the inhibition is inactive: 0.05%.

(Values after PubChem BioAssay AID588727 (Southern Research Specialized Biocontainment Screening …, 2011).)
